A mixed list of measured activities; the numbers were collected in NIAID ChemDB.

Shared fields: tests in culture; organism: Candida albicans

MIC50, MIC90 and the like: level of inhibition, or share of isolates inhibited.

smiles,strain or isolate,read by,measure,result
CCC/C=C/C=C/C=C/C(=O)OCC1O[C@@H](OC2C(CO)O[C@]3(OCc4cc(O)cc(O)c43)[C@H](O)[C@H]2OC(=O)/C=C/C=C/CC(O)/C=C/C=C/C=C/CCC)[C@H](O)[C@@H](O)[C@H]1O,IAM4888,,MIC,0.2 µg/mL
CCCNC(=S)NNC(=O)c1cn2ccccc2n1,ATCC 10231,broth dilution,MIC,32 µg/mL
Cc1ccc(/C(=N\OCc2ccccc2)c2cc3ccccc3o2)cc1,,,MIC,16 µg/mL
O=C(/C=C/c1cc(O)ccc1O)c1ccccc1,ATCC 18804,,MIC,100 µg/mL
CCCCCCCCOc1ccc(C(=O)NC2C[C@@H](O)[C@@H](O)NC(=O)C3[C@@H](O)[C@@H](C)CN3C(=O)C(C(C)O)NC(=O)C([C@H](O)[C@@H](O)c3ccc(O)cc3)NC(=O)C3C[C@@H](O)CN3C(=O)C(C(C)O)NC2=O)cc1,Lieberman,,MIC,0.5 µg/mL
CN1CCN(c2n[nH]c(N3C(=O)CS[C@@H]3c3ccccc3)n2)CC1,A39,broth dilution,MIC,10 µg/mL
Brc1ccc(Nc2nnc(-c3cn4ccccc4n3)o2)cc1,ATCC 10231,broth dilution,MIC,32 µg/mL
CCOC(=O)c1csc(NC(=O)CSc2nnc(C(C)Oc3ccc(Cl)cc3)n2-c2ccccc2)n1,Clinical isolates,,MIC,>16 µg/mL
CC(=O)O/N=C(\c1ccc(C)cc1)c1cc2ccccc2o1,,,MIC,8 µg/mL
CN1C(=O)CS/C1=N/NC(=O)c1cn2ccccc2n1,ATCC 10231,broth dilution,MIC,64 µg/mL
CCOC(=O)Cc1csc(NC(=O)CSc2nnc(C(C)Oc3ccc(C)cc3)n2C2CCCCC2)n1,Clinical isolates,,MIC,>16 µg/mL
CN1CCN(c2n[nH]c(N3C(=O)CS[C@@H]3c3ccc4c(c3)OCO4)n2)CC1,149.97,broth dilution,MIC,1.56 µg/mL
CCOC(=O)Cc1csc(NC(=O)CSc2nnc(C(C)Oc3ccc(Cl)cc3)n2-c2ccccc2)n1,NRRL Y-27077,,MIC,8 µg/mL
CC(C)(O)c1cn(-c2ccc(Cl)cc2)nn1,URM 4819,broth dilution,MIC,128 µg/mL
CC(N1CCN(c2ccc(-n3cnn(Cc4ccc(OC(F)(F)F)cc4)c3=O)cc2F)CC1)C(O)(Cn1cncn1)c1ccc(F)cc1F,6 strains (fluconazole-resistant),,MIC90,0.19 µg/mL
CNC(=S)NNC(=O)c1cn2ccccc2n1,ATCC 10231,broth dilution,MIC,64 µg/mL
CCC(C)CC(C)CCCCCCCCC(=O)N[C@H]1C[C@@H](O)[C@H](NCCN)NC(=O)[C@@H]2[C@@H](O)CCN2C(=O)[C@H]([C@H](O)CCN)NC(=O)[C@H]([C@H](O)[C@@H](O)c2ccc(O)cc2)NC(=O)[C@@H]2C[C@@H](O)CN2C(=O)[C@H]([C@@H](C)O)NC1=O,MY1055,,MIC,0.25 µg/mL
COC(=O)Cc1csc(NC(=O)CSc2nnc(C(C)Oc3ccccc3)n2C2CCCCC2)n1,Clinical isolates,,MIC,>16 µg/mL
Clc1ccc(Nc2nnc(-c3cn4ccccc4n3)o2)cc1,ATCC 10231,broth dilution,MIC,32 µg/mL
COc1ccc(/C(=N\OC(C)=O)c2cc3ccccc3o2)cc1,,,MIC,64 µg/mL
CC(N1CCN(c2ccc(-n3cnn(Cc4ccc(OC(F)(F)F)cc4)c3=O)cc2)CC1)C(O)(Cn1cncn1)c1ccc(F)cc1F,51 strains (fluconazole-susceptible),,MIC90,0.09 µg/mL
Cc1ccc(OC(C)c2nnc(SCC(=O)Nc3nccs3)n2C2CCCCC2)cc1,NRRL Y-27077,,MIC,16 µg/mL
O=C(NNC(=S)Nc1ccccc1)c1cn2ccccc2n1,ATCC 10231,broth dilution,MIC,32 µg/mL
COc1ccc(/C(=N\OCc2ccccc2)c2cc3ccccc3o2)cc1,,,MIC,16 µg/mL
CCNC(=S)NNC(=O)c1cn2ccccc2n1,ATCC 10231,broth dilution,MIC,64 µg/mL
CCO/N=C(\c1ccc(Cl)cc1)c1cc2ccccc2o1,,,MIC,1 µg/mL
O=C(NNC(=S)Nc1ccc(Br)cc1)c1cn2ccccc2n1,ATCC 10231,broth dilution,MIC,64 µg/mL
CC(=O)O/N=C(\c1ccc(Cl)cc1)c1cc2ccccc2o1,,,MIC,16 µg/mL
O=C(/C=C/c1ccc(O)cc1O)c1ccccc1O,ATCC 18804,,MIC,50 µg/mL
CC(=O)O/N=C(\c1ccccc1)c1cc2ccccc2o1,,,MIC,4 µg/mL
CC(C)N=C(N)c1ccc2nc(-c3ccc4c(c3)Cc3cc(-c5nc6ccc(C(N)=NC(C)C)cc6[nH]5)ccc3-4)[nH]c2c1,Isolate CA2256 fluconazole-resistant,,MIC,1.56 µg/mL
COc1ccc([C@H]2SC(C)C(=O)N2c2nc(N3CCOCC3)n[nH]2)cc1OC,A39,broth dilution,MIC,10 µg/mL

4 of the rows above, restated:

smiles	strain or isolate	read by	measure	result
Brc1ccc(Nc2nnc(-c3cn4ccccc4n3)o2)cc1	ATCC 10231	broth dilution	MIC	32 µg/mL
CC(=O)O/N=C(\c1ccc(Cl)cc1)c1cc2ccccc2o1			MIC	16 µg/mL
CN1CCN(c2n[nH]c(N3C(=O)CS[C@@H]3c3ccccc3)n2)CC1	A39	broth dilution	MIC	10 µg/mL
COc1ccc(/C(=N\OC(C)=O)c2cc3ccccc3o2)cc1			MIC	64 µg/mL

Conditions beyond the fields shown may differ between rows. Blank or dashed fields: not listed here.